{"source": "patent US10023484B2", "about": "“Use of peracetic acid/hydrogen peroxide and peroxide-reducing agents for treatment of drilling fluids, frac fluids, flowback water and disposal water” (Ecolab USA Inc., priority 2012, dated 2018)", "key": {"[1]": {"assay": "Wheel box corrosion test, weight loss of 1018 carbon steel coupon", "conditions": "1000 ppm catalase added to PAA/H2O2 treatment, 24 hours"}, "[2]": {"assay": "Catalase (ES2000) amount needed in treated water source, iodometric titration (Example 15)", "assay_type": "physicochemical", "description": "Field of use applications were analyzed to determine the amount of a peroxide-reducing enzyme necessary to obtain desired concentrations of both peracid and hydrogen peroxide in a treated water source. EnviroSan (POAA) peracid composition was added to water to reach the targeted POAA concentrations set forth in Table 18, and the concentration of both POAA and H2O2 were confirmed by iodometric titration. Then catalase (ES2000) was added to the solution, and the sample was stored under ambient conditions. The concentration of POAA and H2O2 were monitored by the iodometric conditions."}}}
{"substance": "Catalase", "values": [{"measurement": "reduction in corrosion rates", "setting": "[1]; deionized water", "result": "~60", "unit": "%"}, {"measurement": "decrease of corrosion rates of 1018 carbon steel", "setting": "[1]; produced water", "result": "30-50%"}, {"measurement": "catalase level sufficient for treating the water source", "setting": "[2]", "result": "~1", "unit": "ppm"}, {"measurement": "selectivity of H2O2 decomposition versus POAA", "setting": "[2]; ambient conditions", "result": "selectively decomposes the H2O2"}, {"measurement": "lowest catalase level that treated pond water with POAA and H2O2", "setting": "[2]; within 4 hours", "result": 0.5, "unit": "ppm"}]}
